# Results: US20250313611A1 (VIB VZW, published 2025)
# Key:
# Assay in all cases: cell-based or functional assay
# [1] = target: T1, spike protein of authentic SARS-COV-2 614G virus (SARS-CoV-2 614G)
# [2] = target: T1, spike protein of authentic SARS-COV-2 …; remark: listed apart in the source
# [3] = target: SARS-COV-2 spike (614G-del18) (SARS-CoV-2)
# [4] = target: SARS-COV-2 Omicron XBB.1.5 spike (pCG1, del18; XBB with F486P) (SARS-CoV-2 Omicron XBB.1.5)
# [5] = target: T1, spike protein of authentic SARS-COV-2 …; remark: listed apart in the source
binder,measurement,setting,value
huR3DC23-Fc_LS (Fc fusion) DVQLVESGGGLVQPGGSLRLSCAVSGRIFSTYTMGWFRQAPGKEREFVAAVRWGAGTIYYADSVKGRFTISRDNAKNTVYLQMNSLRPEDTAVYYCGAAYVSKANYGSLWYQDSRRYDYWGQGTLVTVSSGGGGSGGGGS[left out - human IgG1 Fc with changes],"geometric mean IC50 (ng/mL), live virus microneutralisation",[1],3.7 ng/mL
same,"geometric mean IC50 (ng/mL), live virus method",[2],3.7 ng/mL
same,"mean IC50 (ng/ml), VSV pseudovirus neutralisation",[3],0.8 ng/mL
same,"mean IC50 (ng/ml), VSV pseudovirus neutralisation",[4],0.51 ng/mL
same,"GM IC50 in ng/mL (GSD factor), live virus microneutralisation",[5],2.5 ng/mL
